We go through 1 compound from PubChem BioAssay AID1445 (SRMLSC, 2008).

By UniProt entry, the sequences of proteins in these tests, tags left out.
UniProt O96935, whole entry: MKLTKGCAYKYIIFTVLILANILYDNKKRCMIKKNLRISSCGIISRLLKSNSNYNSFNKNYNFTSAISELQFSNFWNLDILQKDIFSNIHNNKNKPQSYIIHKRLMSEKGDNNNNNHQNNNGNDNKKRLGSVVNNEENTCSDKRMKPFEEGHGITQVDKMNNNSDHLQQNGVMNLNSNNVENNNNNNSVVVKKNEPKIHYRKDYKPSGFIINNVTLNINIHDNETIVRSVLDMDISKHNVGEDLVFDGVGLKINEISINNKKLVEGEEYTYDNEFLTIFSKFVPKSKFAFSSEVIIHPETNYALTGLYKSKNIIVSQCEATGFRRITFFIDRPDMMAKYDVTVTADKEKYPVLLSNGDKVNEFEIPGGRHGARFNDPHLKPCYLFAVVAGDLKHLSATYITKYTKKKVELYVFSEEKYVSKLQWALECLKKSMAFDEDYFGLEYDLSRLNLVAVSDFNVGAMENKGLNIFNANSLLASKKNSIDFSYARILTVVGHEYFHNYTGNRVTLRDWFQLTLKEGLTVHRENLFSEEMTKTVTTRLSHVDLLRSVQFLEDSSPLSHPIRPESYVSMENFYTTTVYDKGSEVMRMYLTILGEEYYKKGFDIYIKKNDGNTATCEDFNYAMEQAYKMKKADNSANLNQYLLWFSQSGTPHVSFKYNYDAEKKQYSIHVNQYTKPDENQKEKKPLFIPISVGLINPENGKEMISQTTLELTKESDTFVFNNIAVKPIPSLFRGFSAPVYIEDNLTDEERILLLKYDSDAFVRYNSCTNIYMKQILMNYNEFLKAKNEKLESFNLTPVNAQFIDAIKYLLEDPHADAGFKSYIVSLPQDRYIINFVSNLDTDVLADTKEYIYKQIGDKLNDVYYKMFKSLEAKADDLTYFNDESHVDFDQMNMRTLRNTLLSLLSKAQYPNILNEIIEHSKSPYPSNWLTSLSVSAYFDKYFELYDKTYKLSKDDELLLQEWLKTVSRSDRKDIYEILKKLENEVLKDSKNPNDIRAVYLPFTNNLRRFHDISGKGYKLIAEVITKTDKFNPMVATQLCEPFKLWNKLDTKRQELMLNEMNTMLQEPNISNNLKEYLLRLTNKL

The list shows a part of the results, in another mix than the full data. Measured potencies and affinities stand elsewhere. Calls of active or inactive are those of the source.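 How the source made its calls: active means primary inhibition above the hit cutoff, then over 50% inhibition at one or more dose response concentrations (cut at about 23% in these data, passing the limit was not always enough); inconclusive means conflicting primary data, or primary hits not chosen for dose response; inactive means low primary inhibition, or under 50% at every dose.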

The target of the experiment is Aminopeptidase N (Plasmodium falciparum (isolate 3D7)) (UniProt O96935). The experiment is described as follows: malaria alanyl aminopeptidase activity blockers – biochemical, fluorogenic H-Leu-NHMec substrate, 1536-well (AID 1445).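 Further: plate controls were DMSO full reaction for no effect and no enzyme background for full effect.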 To be noted: recombinant M1AAP, H-Leu-NHMec fluorogenic kinetic assay; at 30 µM; stronger effect = higher value.
On to `NC(=O)Nc1ccc([As](=O)(O)O)cc1`, for which the inhibition is inactive: -1.6%.
